Measured values from several laboratories, pooled; numbers as filed in NIAID ChemDB.

All rows: tests in culture; agent: Varicella zoster virus; measure: EC50

ECn is the concentration giving n% inhibition of infection, replication or growth.

OC[C@H]1O[C@@H](c2cc(F)c(F)cc2F)C[C@@H]1O ; strain: (TK+)/OKA ; method: plaque count ; cell line: HEL ; value: >200 µM
C=C[C@@H](O)C1=C[C@@H](n2cnc3c(N)ncnc32)[C@H](O)[C@@H]1O ; strain: 07/1 YS/R (TK-) ; method: cytopathic effect ; cell line: HEL ; value: >50 µg/mL
COC(=O)[C@H](C)NP(=O)(OCC1C/C1=C/n1cnc2c(=O)[nH]c(N)nc21)Oc1ccccc1 ; cell line: HFF ; value: 8.1 µM
Cc1cc([C@@H]2C[C@H](O)[C@@H](CO)O2)c(F)cc1F ; strain: TK+/YS ; method: plaque count ; cell line: HEL ; value: >200 µM
OC[C@H]1O[C@@H](c2cc(C(O)C(Br)Br)c(F)cc2F)C[C@@H]1O ; strain: YS/R (TK-) ; method: plaque count ; cell line: HEL ; value: 126 µg/mL
Cc1cc([C@H]2C[C@H](O)[C@@H](CO)O2)c(F)cc1F ; strain: (TK-)/YS/R ; method: plaque count ; cell line: HEL ; value: >200 µM
Nc1nc2c(ncn2C[C@]2(CO)C[C@H]2CO)c(=O)[nH]1 ; strain: YS/R (TK-) ; method: plaque count ; cell line: HEL ; value: 16 µg/mL
C[C@H](NC(=S)Nc1ccc(NC(=O)c2csnn2)cn1)c1cc(C(F)(F)F)cc(C(F)(F)F)c1 ; strain: ELLEN ; method: ELISA ; cell line: HFF ; value: >7.5 µg/mL
CCCCCCCOc1ccc(-c2cc3cn([C@H]4C[C@H](O)[C@@H](CO)O4)c(=O)nc3o2)cc1 ; strain: YS ; method: plaque count ; cell line: HEL ; value: 0.006 µM
N#Cc1cc([C@H]2C[C@H](O)[C@@H](CO)O2)c(F)cc1F ; strain: (TK-)/YS/R ; method: plaque count ; cell line: HEL ; value: >200 µM
CC(C)(C)[Si](OC[C@H]1C[C@@H](Cn2cnc3c(N)ncnc32)c2cn(Cc3ccccc3)nc21)(c1ccccc1)c1ccccc1 ; strain: TK- ; cell line: HEL ; value: 1.5 µM
CCCCCCOc1ccc(-c2cc3cn([C@H]4C[C@H](O)[C@@H](CO)O4)c(=O)nc3o2)cc1 ; strain: OKA ; method: plaque count ; cell line: HEL ; value: 0.0015 µM
Nc1nc2c(ncn2CC[C@@H](O)CO)c(=O)[nH]1 ; strain: ULF PE 9/84 (TK+) ; cell line: HEL ; value: 40–160 µM
Cc1ccn2c(C3OCCS3)cnc2c1 ; strain: OKA ; cell line: HEL ; value: >1000 µM
Nc1nc(Cl)c2ncn([C@@H](CCO)SCCO)c2n1 ; method: cytopathic effect ; cell line: HFF ; value: 131 µM
Nc1nc2c(ncn2COC(CO)CO)c(=O)[nH]1 ; value: 1–10 µM
CCCCCCCCc1cc2cn([C@H]3C[C@H](O)[C@@H](CO)O3)c(=O)nc2[nH]1 ; strain: YS ; method: plaque count ; cell line: HEL ; value: 0.38 µM
Nc1nc(NC2CC2)c2ncn(C=C3CC3CO)c2n1 ; cell line: HFF ; value: 13 µM
CCCCCOc1ccc(-c2cc3cn([C@H]4C[C@H](O)[C@@H](CO)O4)c(=O)nc3o2)cc1 ; strain: YS ; method: plaque count ; cell line: HEL ; value: 0.001 µM
COc1cc(OC)c(NC(=S)Nc2ccc(NC(=O)c3ccccc3C)nc2)cc1Cl ; strain: ELLEN ; method: ELISA ; cell line: HFF ; value: >15 µg/mL
O=c1[nH]c(=O)n([C@H]2C[C@H](O)[C@@H](CO)O2)cc1I ; strain: YS-W3 G19 H3 ; method: plaque count ; cell line: HEL ; value: 0.4 µg/mL
O=c1nc2oc(CCCSc3ccccc3)cc2cn1[C@H]1C[C@H](O)[C@@H](CO)O1 ; strain: TK+/YS ; method: plaque count ; cell line: HEL ; value: 0.67 µM
OC[C@H]1O[C@@H](c2ccc(F)cc2F)C[C@@H]1O ; strain: TK+/YS ; method: plaque count ; cell line: HEL ; value: >200 µM
O=c1[nH]c(=O)n([C@H]2C[C@H](O)[C@@H](CO)O2)cc1-c1cc(-c2ccc(Cl)cc2)no1 ; strain: OKA ; method: plaque count ; cell line: HEL ; value: 9 µg/mL
O=c1[nH]c(=O)n([C@H]2C[C@H](O)[C@@H](CO)O2)cc1/C=C/Br ; strain: (TK+)/OKA ; method: plaque count ; cell line: HEL ; value: 0.009 µM
Nc1nc(N)c2ncn(C=C3CC3CO)c2n1 ; cell line: HFF ; value: 93 µM
O=C(NCc1ccc(Cl)cc1)c1c[nH]c2ccc(CCCO)cc2c1=O ; strain: GEI ; method: plaque count ; value: 0.1 µM
Nc1nc2c(ncn2/C=C2/CC2(CO)CO)c(=O)[nH]1 ; method: cytopathic effect ; cell line: HFF ; value: >404 µM
Nc1nc2c(ncn2C=C2CC2CO)c(=O)[nH]1 ; cell line: HFF ; value: 61 µM
Nc1nc2c(ncn2CC[C@H](O)CO)c(=O)[nH]1 ; strain: ULF PE 9/84 (TK+) ; cell line: HEL ; value: 425–600 µM
Nc1nc2c(ncn2COC(CO)CO)c(=O)[nH]1 ; method: plaque count ; value: 1–10 µM
C=C[C@H](O)C1=C[C@@H](n2cnc3c(N)ncnc32)[C@H](O)[C@@H]1O ; strain: OKA YS ; method: cytopathic effect ; cell line: HEL ; value: >50 µg/mL
Nc1nc2c(ncn2CCC(CO)CO)c(=O)[nH]1 ; strain: YS (TK+) ; method: plaque count ; cell line: HEL ; value: 0.6 µg/mL
COc1cc(F)c([C@H]2C[C@H](O)[C@@H](CO)O2)cc1[N+](=O)[O-] ; strain: (TK-)/YS/R ; method: plaque count ; cell line: HEL ; value: >200 µM
C=C1[C@H](CO)[C@@H](O)C[C@@H]1n1cnc2c(=O)[nH]c(N)nc21 ; method: plaque count ; cell line: WI-38 ; value: 12 µM
Nc1nc2c(ncn2[C@@H]2C=C[C@H](CO)CC2)c(=O)[nH]1 ; value: 1–10 µM
Nc1nc2c(ncn2[C@H]2C=C[C@@H](CO)[C@H](O)C2)c(=O)[nH]1 ; strain: OKA ; method: cytopathic effect ; cell line: E6SM ; value: 1.9 µg/mL
O=c1nc2oc(CCCCOc3ccccc3)cc2cn1[C@H]1C[C@H](O)[C@@H](CO)O1 ; strain: (TK-)07/1 ; method: plaque count ; cell line: HEL ; value: >200 µM
NC1=NC2C(C=CN2CC(CO)CCO)C(=O)N1 ; value: 0.01–0.1 µM
CCOc1ccc(-c2cc3cn([C@H]4C[C@H](O)[C@@H](CO)O4)c(=O)nc3o2)cc1 ; strain: OKA ; method: plaque count ; cell line: HEL ; value: 0.009 µM
Cc1ccn2c(C3OCCO3)cnc2c1 ; strain: Strain 07/1 ; cell line: HEL ; value: >1000 µM
Nc1nc2c(ncn2[C@@H]2C=C[C@H](CO)[C@@H](O)C2)c(=O)[nH]1 ; strain: YS ; method: cytopathic effect ; cell line: E6SM ; value: 0.49 µg/mL
Nc1nc2c(ncn2COC(CO)CO)c(=O)[nH]1 ; method: plaque count ; cell line: VERO ; value: 3.71 µM
O=c1c2ncn(COC(CO)CO)c2nc2[nH]c(-c3ccccc3)cn12 ; strain: YS/R (TK-) ; method: plaque count ; cell line: HEL ; value: 1 µg/mL
CC[C@@H](O)C1=C[C@@H](n2cnc3c(N)ncnc32)[C@H](O)[C@@H]1O ; strain: OKA YS ; method: cytopathic effect ; cell line: HEL ; value: >50 µg/mL
Cc1cc([C@H]2C[C@H](O)[C@@H](CO)O2)c(F)cc1Cl ; strain: (TK+)/OKA ; method: plaque count ; cell line: HEL ; value: >200 µM
Cc1cccn2c(C3OCCS3)cnc12 ; strain: Strain 07/1 ; cell line: HEL ; value: >1000 µM
COC(=O)C[C@@H](SCCO)n1cnc2c(Cl)nc(N)nc21 ; method: cytopathic effect ; cell line: HFF ; value: 147 µM
COc1cc(NC(=O)c2ccccc2F)ccc1NC(=S)NC1=CC(Cl)C(C)(OC)C=C1 ; strain: ELLEN ; method: ELISA ; cell line: HFF ; value: >10 µg/mL
NC1=NS(=O)(=O)N(Cc2ccccc2)c2nc(-c3ccc(Cl)cc3)[nH]c21 ; strain: 07/1 (TK-) ; method: plaque count ; cell line: HEL ; value: >5 µg/mL
CCCCCCCCCCCCc1cc2cn([C@H]3C[C@H](O)[C@@H](CO)O3)c(=O)nc2o1 ; strain: YS ; method: plaque count ; cell line: HEL ; value: 1.2 µM
Cc1cn([C@@H]2O[C@H](CO)[C@H]2CO)c(=O)[nH]c1=O ; strain: V8602/5-1-1 ; method: plaque count ; cell line: HFF ; value: 0.008 µg/mL
Cc1cn(C(CCN=[N+]=[N-])OCCO)c(=O)[nH]c1=O ; method: cytopathic effect ; cell line: HFF ; value: >200 µM
Nc1nc2c(ncn2[C@@H]2C[C@H](CO)[C@H]2CO)c(=O)[nH]1 ; value: 0.1–1 µM
OC[C@H]1O[C@@H](c2cc(C(F)(F)F)c(F)cc2F)C[C@@H]1O ; strain: (TK+)/OKA ; method: plaque count ; cell line: HEL ; value: >200 µM
NC1=NS(=O)(=O)N(Cc2ccccc2)c2nc[nH]c21 ; strain: 07/1 (TK-) ; method: plaque count ; cell line: HEL ; value: >50 µg/mL
Cc1cccn2c(C3SCCS3)cnc12 ; strain: Strain 07/1 ; cell line: HEL ; value: >1000 µM
CCCCCCc1cc2cn([C@H]3C[C@H](O)[C@@H](CO)O3)c(=O)nc2[nH]1 ; strain: YS ; method: plaque count ; cell line: HEL ; value: >50 µM
O=C(O)P(=O)(O)O ; strain: ULF PE 9/84 (TK+) ; cell line: HEL ; value: 150–300 µM
CCc1ccc(OCCCc2cc3cn([C@H]4C[C@H](O)[C@@H](CO)O4)c(=O)nc3o2)cc1 ; strain: (TK-)/YS/R ; method: plaque count ; cell line: HEL ; value: >20 µM
COc1ccc(-c2cc3cn([C@H]4C[C@H](O)[C@@H](CO)O4)c(=O)nc3o2)cc1 ; strain: YS ; method: plaque count ; cell line: HEL ; value: 0.045 µM

A second listing of 7 rows from above:

{"structure": "O=c1[nH]c(=O)n([C@H]2C[C@H](O)[C@@H](CO)O2)cc1/C=C/Br", "strain": "(TK+)/OKA", "method": "plaque count", "cell line": "HEL", "value": "0.009 µM"}
{"structure": "OC[C@H]1O[C@@H](c2cc(F)c(F)cc2F)C[C@@H]1O", "strain": "(TK+)/OKA", "method": "plaque count", "cell line": "HEL", "value": ">200 µM"}
{"structure": "CCCCCCCCCCCCc1cc2cn([C@H]3C[C@H](O)[C@@H](CO)O3)c(=O)nc2o1", "strain": "YS", "method": "plaque count", "cell line": "HEL", "value": "1.2 µM"}
{"structure": "COc1cc(OC)c(NC(=S)Nc2ccc(NC(=O)c3ccccc3C)nc2)cc1Cl", "strain": "ELLEN", "method": "ELISA", "cell line": "HFF", "value": ">15 µg/mL"}
{"structure": "O=c1nc2oc(CCCCOc3ccccc3)cc2cn1[C@H]1C[C@H](O)[C@@H](CO)O1", "strain": "(TK-)07/1", "method": "plaque count", "cell line": "HEL", "value": ">200 µM"}
{"structure": "CC[C@@H](O)C1=C[C@@H](n2cnc3c(N)ncnc32)[C@H](O)[C@@H]1O", "strain": "OKA YS", "method": "cytopathic effect", "cell line": "HEL", "value": ">50 µg/mL"}
{"structure": "CCCCCCCCc1cc2cn([C@H]3C[C@H](O)[C@@H](CO)O3)c(=O)nc2[nH]1", "strain": "YS", "method": "plaque count", "cell line": "HEL", "value": "0.38 µM"}

Two numbers with a dash give a range or band. Rows are shuffled and stem from different studies.